Anti-infective test results gathered from many reports (values: NIAID ChemDB through PubChem).

Common to all: tests in culture; agent: HIV-1; endpoint: fold resistance

An empty or dashed field is not shown. Conditions beyond the fields shown may differ between rows. Fold resistance has wild type as its base.

smiles	strain or isolate	mutations	conditions	cell line	read by	value
C[C@H](CNC(=S)Nc1ccc(Br)cn1)c1ccccc1	NNRTI-resistant (RT Y181C K103N) A17V	RT-Y181C K103N	-	PBMC	p24	40
COc1ccc(S(=O)(=O)N(CC(C)C)C[C@@H](O)[C@H](Cc2ccccc2)NC(=O)O[C@H]2CO[C@H]3OCC(F)(F)[C@H]32)cc1	NL4-3	L10I G48V I54V A71V I84V L90M SQV resistant	-	MT-4	-	260
Nc1ccn([C@H]2CC[C@@H](CO)O2)c(=O)n1	IIIB-TSAO-m3T(10)(RT-Y181C)	RT-Y181C	-	CEM	syncytia	0.4
N#Cc1ccc(Nc2nc(N)nc(Cc3c(Cl)cccc3Cl)n2)cc1	NNRTI-resistant (RT L100I K103N)	RT-L100I K103N	-	MT-4	cytopathic effect / MTT	>1666
Cc1cn([C@@H]2O[C@H](CO[Si](C)(C)C(C)(C)C)C3(OS(=O)(=O)C=C3N)[C@H]2O[Si](C)(C)C(C)(C)C)c(=O)n(C)c1=O	IIIB-TIBO(0.5)(RT-L100I)	RT-L100I	-	CEM	syncytia	1.33
CCc1cc([C@](C#CC2CC2)(OCc2ccccc2)C(F)(F)F)c(=O)[nH]c1C	-	RT-K103N V108I	-	-	-	26.2
Cc1cccc(NC(=S)NC[C@H](C)c2ccccc2)n1	NNRTI-resistant (RT Y181C K103N) A17V	RT-Y181C K103N	-	PBMC	p24	300
CC(C)CN(C[C@@H](O)[C@H](Cc1ccccc1)NC(=O)O[C@H]1CO[C@H]2OCC(F)(F)[C@H]21)S(=O)(=O)c1ccc(N)cc1	NL4-3	L23I E34Q K43I M46I I50L G51A L63P A71V V82A T91A ATV resistant	-	MT-4	-	12
Cc1cn([C@H]2C[C@H](N=[N+]=[N-])[C@@H](CO)O2)c(=O)[nH]c1=O	IIIB	I401T R409K D437N	-	MT-2	p24 / ELISA	0.9
O=C1Nc2ccc(Cl)cc2[C@@](C#CC2CC2)(C(F)(F)F)N1	-	RT-K103N P225H	-	-	-	36.5
CC(C)CN(C[C@@H](O)[C@H](Cc1ccccc1)NC(=O)O[C@H]1CCOC1)S(=O)(=O)c1ccc(N)cc1	NL4-3	A28S L33F V82I GRL04810-resistant	-	MT-4	-	>13
Cc1cc(C)c(Nc2nc(Nc3ccc(C#N)cc3)ncc2Cl)c(C)c1	NNRTI-resistant (RT K103N Y181C)	RT-K103N Y181C	-	MT-4	cytopathic effect / MTT	38
Nc1ccn([C@H]2CC[C@@H](CO)O2)c(=O)n1	HXB2	RT-M184V	-	HT4 + HT4 LacZ-1	plaque count	3.21
O=C1c2ccccc2C(=O)N1CCOC(=S)N(C(=O)c1cccnc1Cl)c1ccc(Cl)cc1	A17	RT-K103N Y181C	-	MT-4	cytopathic effect / MTT	>20000
Cc1ccc(NC(=S)NC[C@H](C)c2ccccc2)nc1	NNRTI-resistant (RT Y181C K103N) A17V	RT-Y181C K103N	-	PBMC	p24	600
COc1cc(C(=O)N[C@H](C(=O)NCCCC[C@@H](CO)N(CC(C)C)S(=O)(=O)c2ccc(N)cc2)C(c2ccccc2)c2ccccc2)ccc1O	4596 PR-M46I V82T I84V L10R L63P	PR-M46I V82T I84V L10R L63P	-	MT-4	cytopathic effect / MTT	1.64
CC(C)=CCN1Cc2cc(Cl)cc3[nH]c(=S)n(c23)C[C@@H]1C	IIIB-TIBO(0.5)(RT-L100I)	RT-L100I	-	CEM	syncytia	18.6
Nc1nc(NC2CC2)c2ncn([C@H]3C=C[C@@H](CO)C3)c2n1	-	RT-Q151M V75I	-	MT-2	cytopathic effect / MTT	>8
COC(=O)N[C@@H](Cc1c[nH]c2ccccc12)C(=O)NCCCC[C@@H](CO)N(CC(C)C)S(=O)(=O)c1ccc(N)cc1	RF2802 (PR-V82F I84V)	PR-V82F I84V	-	MT-4	cytopathic effect / MTT	0.9
Cc1cn([C@H]2C[C@H](N=[N+]=[N-])[C@@H](CO)O2)c(=O)[nH]c1=O	-	RT-Q151M	-	MT-2	cytopathic effect / MTT	4.8
CCOP(=O)(COc1ccc(C[C@H](NC(=O)O[C@H]2CO[C@H]3OCC[C@H]32)[C@H](O)CN(CC(C)C)S(=O)(=O)c2ccc(OC)cc2)cc1)OCC	IIIB	K112M K113E V128I	-	MT-2	p24 / ELISA	1.3
Nc1ncnc2c1ncn2CCOCP(=O)(O)O	IIIB-Nevirapine(1.0)(RT-Y181C)	RT-Y181C	-	CEM	syncytia	1.86
O=C1c2ccccc2C(=O)N1CCOC(=S)N(C(=O)c1ccco1)c1ccc([N+](=O)[O-])cc1	IIIB	RT-K103R V179D P225H	-	MT-4	cytopathic effect / MTT	>12500
C[C@H](CNC(=S)Nc1ccc(Cl)cn1)c1ccccc1	NNRTI-resistant (RT Y181C) A17	RT-Y181C	-	PBMC	p24	12.5
Cc1cn([C@H]2C[C@H](N=[N+]=[N-])[C@@H](CO)O2)c(=O)[nH]c1=O	126 BCH-189 (RT-M184V)	RT-M184V	-	MT-4	p24	0.75
C[C@@H](CNC(=S)Nc1ccc(Cl)cn1)c1ccccc1	NNRTI-resistant (RT Y181C K103N) A17V	RT-Y181C K103N	-	PBMC	p24	>500
O=C1c2ccccc2C(=O)N1CCOC(=S)N(C(=O)c1cccs1)c1ccc(Cl)cc1	IIIB	RT-K103R V179D P225H	-	MT-4	cytopathic effect / MTT	>12500
O=c1[nH]cnc2c1ncn2[C@H]1CC[C@@H](CO)O1	RTMN (RT-M41L T215Y)	RT-M41L T215Y	-	HT4 + HT4 LacZ-1	plaque count	2.4
O=C1c2ccccc2C(=O)N1CCOC(=S)N(C(=O)c1ccccc1)c1ccccc1	N119 nevirapine-resistant (RT Y181C)	RT-Y181C	-	MT-4	cytopathic effect / MTT	>250
CCN(c1nc(F)ccc1NC(C)(C)C)C1CCN(C(=O)c2cc3cc(NC(=O)N4CCN(C)CC4)ccc3[nH]2)CC1	IIIB	I401T R409K D437N	-	MT-2	p24 / ELISA	1.5
C[C@H](Cn1cnc2c(N)ncnc21)OCP(=O)(O)O	HXB2	T66I	pseudotyped	MT-2	recombinant virus assay / single cycle	1